Anti-infective test results gathered from many reports (values: NIAID ChemDB through PubChem).

All rows: whole-cell or culture tests; organism: Hepatitis B virus; method: PCR; measure: EC50

a–b is a range or a potency band. Neighbouring rows are from separate reports. ECn is the concentration giving n% inhibition of infection, replication or growth.

NC(=O)COc1ccc(CNC(=O)c2c3n(c(=O)n2-c2ccc(OCC(F)(F)F)cc2)CCN(C(=O)c2ccc(Br)c(Cl)c2)C3)c(-n2cccn2)c1 ; cell line: HepG2.117 ; result: 0.5–5 µM
CCNC(=O)C(=O)N1CC(C)C(NS(=O)(=O)c2cn(C)c(C(=O)Nc3cc(F)c(F)c(F)c3)c2F)C1 ; cell line: HepAD38 cells ; result: <0.1 µM
Cc1c(C(=O)C(=O)NC(C)(C)c2cn[nH]c2)c(C)n(C)c1C(=O)Nc1ccc(F)c(C(F)(F)F)c1 ; cell line: HepG2.2.15 ; result: <0.001 µM
C[C@@H](NC(=O)c1c2n(c(=O)n1-c1ccc(OCC(F)(F)F)cc1)CCN(C(=O)c1ccc(Br)c(Cl)c1)C2)c1cccc2nccnc12 ; cell line: HepG2.117 ; result: 0.1–0.5 µM
Cn1nc2cc(NS(=O)(=O)NC3CN(Cc4ccccc4)C3)ccc2c1C(=O)Nc1ccc(F)c(Cl)c1 ; cell line: HepAD38 ; result: >1000 µM
Cc1c(C(=O)C(=O)NC(C)(C)c2ccncc2)c(C)n(C)c1C(=O)Nc1ccc(F)c(C#N)c1 ; cell line: HepG2.2.15 ; result: 0.001–0.0099 µM
CNC(=O)C(=O)N1CC[C@@H](NS(=O)(=O)c2cn(C)c(C(=O)Nc3ccc(F)c(C(F)F)c3)c2F)C1 ; cell line: HepAD38 cells ; result: <0.1 µM
Cn1nc2cc(NS(=O)(=O)c3ccn(-c4ccccn4)n3)ccc2c1C(=O)Nc1ccc(F)c(Cl)c1 ; cell line: HepAD38 ; result: 100–1000 µM
COc1ccc(CN2C[C@@H](O)Cn3c(c4n(c3=O)CCN(C(=O)c3ccc(Br)c(Cl)c3)C4)C2=O)c(F)c1 ; cell line: HepG2.117 ; result: 0.1–0.5 µM
C[C@@H](NC(=O)C(=O)N1CC[C@@H](NS(=O)(=O)c2cn(C)c(C(=O)Nc3cc(F)c(F)c(F)c3)c2F)C1)C(F)(F)F ; cell line: HepAD38 cells ; result: <0.1 µM
Cn1nc2cc(C(=O)NC[C@@H](O)CO)ccc2c1C(=O)Nc1ccc(F)c(Cl)c1 ; cell line: HepAD38 ; result: >1000 µM
COc1ccc(-n2c(C(=O)NCc3ccc(CC(=O)O)cc3)c3n(c2=O)CCN(C(=O)c2ccc(Br)c(Cl)c2)C3)cc1 ; cell line: HepG2.117 ; result: >5 µM
C#C[C@](C)(NC(=O)C(=O)c1c(C)c(C(=O)Nc2ccc(F)c(C#N)c2)n(C)c1C)C(F)(F)F ; cell line: HepG2.2.15 ; result: 0.001–0.0099 µM
Cn1nc2cc(S(=O)(=O)NC3CN(C(=O)OC(C)(C)C)C3)ccc2c1C(=O)Nc1ccc(F)c(Cl)c1 ; cell line: HepAD38 ; result: 100–1000 µM
COc1ccc([C@@H](C)NC(=O)c2c3n(c(=O)n2-c2ccc(-n4cccn4)cc2)CCN(C(=O)c2ccc(Br)c(Cl)c2)C3)cc1 ; cell line: HepG2.117 ; result: 0.1–0.5 µM
Cc1cc2c(C(=O)Nc3ccc(F)c(Cl)c3)n(C)nc2cc1NS(=O)(=O)c1cnn(C)c1 ; cell line: HepAD38 ; result: 100–1000 µM
Cc1c(C(=O)C(=O)NC(C)(C)c2cscn2)c(C)n(C)c1C(=O)Nc1ccc(F)c(C(F)(F)F)c1 ; cell line: HepG2.2.15 ; result: 0.001–0.0099 µM
Cc1ncc(S(=O)(=O)Nc2ccc3c(C(=O)Nc4ccc(F)c(Cl)c4)n(C)nc3c2)n1C ; cell line: HepAD38 ; result: 100–1000 µM
CCNC(=O)C(=O)N1CCC(C)(NS(=O)(=O)c2cn(C)c(C(=O)Nc3cc(F)c(F)c(F)c3)c2F)CC1 ; cell line: HepAD38 cells ; result: 0.1–0.3 µM
COc1ccc(-n2c(C(=O)Nc3ncccc3Cc3ccccc3)c3n(c2=O)CCN(C(=O)c2ccc(Br)c(Cl)c2)C3)cc1 ; cell line: HepG2.117 ; result: 0.5–5 µM
Cn1nc2cc(NS(=O)(=O)c3cnn(-c4ccncn4)c3)ccc2c1C(=O)Nc1ccc(F)c(Cl)c1 ; cell line: HepAD38 ; result: <100 µM